Data published in ChEMBL document CHEMBL3616404, “Expanding the chemical space of human serine racemase inhibitors” (Bioorg Med Chem Lett, 2015).

Target: T1, Serine racemase (Homo sapiens) (UniProt Q9GZT4)
T1 sequence (whole entry): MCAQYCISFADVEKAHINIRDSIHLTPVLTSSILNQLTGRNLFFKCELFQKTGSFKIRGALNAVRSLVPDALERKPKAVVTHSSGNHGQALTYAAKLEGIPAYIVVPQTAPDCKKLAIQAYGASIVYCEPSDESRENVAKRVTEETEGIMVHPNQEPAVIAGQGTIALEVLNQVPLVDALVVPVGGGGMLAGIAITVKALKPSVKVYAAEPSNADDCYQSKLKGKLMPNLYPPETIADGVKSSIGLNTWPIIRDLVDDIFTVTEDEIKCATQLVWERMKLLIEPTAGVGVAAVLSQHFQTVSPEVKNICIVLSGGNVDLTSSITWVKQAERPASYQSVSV
Assay: Inhibition of hexa-His-tagged purified human recombinant serine racemase expressed in Escherichia coli BL21 Codonplus (DE3)-RIL cells assessed as reduction in beta-elimination of L-serine at 1.2 mM by spectrophotomtery

O=[N+]([O-])C(=C1N[C@H](O)[C@@H](O)N1)[N+](=O)[O-]
inhibition: 0%
